The text below walks through data of publication PMC11961260 (Royal Society Open Science, 2025).

The data set in a line: general procedure: Fmoc solid-phase peptide synthesis; 2-chlorotrityl chloride (2-CTC) resin (substitution = 0.6 mmol g^-1); DIC, Oxyma, DIEA.
Setting [1] is: whole synthesis, scale of the general procedure 0.05 mmol.
[2] abbreviates: whole synthesis, scale 0.05 mmol.
Setting [3] is: whole synthesis, scale 0.01 mmol.

Ptz-GE(HE-COOH)HE-COOH: the “final HPLC purity” value under setting [1] is given as 99.8%. Under setting [2], this substance showed an isolated mass of 9 mg and an isolated yield of 18%.

On to Ptz-GE(hE-COOH)hE-COOH, for which the “final HPLC purity” value under setting [1] is reported as 99.8%. Under setting [3], the isolated mass came out at 1.7 mg and the isolated yield worked out at 17%.

On to Ptz-GE(wE-COOH)wE-COOH, for which, under setting [1], the “final HPLC purity” value is on record as 98%. Moreover, under setting [3], the isolated mass was 2 mg and the isolated yield is 19%.

As for Ptz-GE(YE-COOH)YE-COOH, the “final HPLC purity” value under setting [1] worked out at 99.5%. Under setting [2], the isolated mass was determined as 10 mg and the isolated yield is 20%.

On to Ptz-GE(FE-COOH)FE-COOH, for which the “final HPLC purity” value under setting [1] turned out to be 99.9%. Besides, under setting [2], the isolated mass turned out to be 11 mg and the isolated yield was 22%.

Consider Ptz-GE(WE-COOH)WE-COOH, for which the “final HPLC purity” value under setting [1] is listed as 99.9%. Also, under setting [2], the isolated mass was determined as 20 mg and the isolated yield is given as 18%.

For Boc-E(WE-COOH)WE-COOH, for the setting “late stage modification step”, the step yield is on record as 60% and the “final HPLC purity” value came out at 99%.
